Compound potency records, mixed from different reports. Data source: NIAID ChemDB in PubChem.

Shared fields: growth or infection tests; agent: Rhinovirus; measure: EC50

ECn is the concentration giving n% inhibition of infection, replication or growth.

compound,strain or isolate,cell line,method,result
Cc1ccc(Cn2cnc3c(N(C)C)nc(C(F)(F)F)nc32)cc1C,Serotype 21,M-HELA,plaque count,>8 µM
CSc1nsc(-c2ccc(OCCc3ccccc3)cc2)c1C#N,Serotype 72 (group A),HELA-OHIO,cytopathic effect,>20 µM
CSc1ccc(Cn2cnc3c(N(C)C)nc(C(F)(F)F)nc32)cc1,Serotype 3,M-HELA,plaque count,>8 µM
CSc1nsc(-c2ccc(OCCOc3ccc(C#N)cc3)cc2)c1C#N,Serotype 14 (group A),HELA-OHIO,cytopathic effect,>2 µM
CN(C)c1nc(C(F)(F)F)nc2c1ncn2Cc1ccccc1,Serotype 13,M-HELA,plaque count,>8 µM
COc1ccc(-c2snc(SC)c2C#N)cc1,Serotype 2 (group B),HELA-OHIO,cytopathic effect,>12 µM
CSc1nsc(-c2ccc(OCCCCOc3ccccc3)cc2)c1C#N,Serotype 72 (group A),HELA-OHIO,cytopathic effect,>20 µM
Fc1cccc(Cn2cnc3c(Nc4cccc(F)c4)nc(C(F)(F)F)nc32)c1,Serotype 38,M-HELA,plaque count,1 µM
CCOC(=O)c1ccc(OCCC2CCN(c3ccc(C)nn3)CC2)cc1,Serotype 39 (group B),HELA-OHIO,cytopathic effect,0.02 µM
CN(C)c1nc(C(F)(F)F)nc2c1ncn2Cc1cccc(F)c1,Serotype 3,M-HELA,plaque count,>8 µM
CSc1nsc(-c2ccc(OC(C)(C)C)cc2)c1C#N,Serotype 39 (group B),HELA-OHIO,cytopathic effect,5 µM
Cc1ccccc1Cn1cnc2c(N(C)C)nc(C(F)(F)F)nc21,Serotype 14,M-HELA,plaque count,>8 µM
CCOC(=O)c1ccc(OCCCCOc2ccc(-c3snc(SC)c3C#N)cc2)cc1,Serotype 45 (group A),HELA-OHIO,cytopathic effect,>2 µM
Cc1cc(CCCOc2c(C)cc(-c3noc(C(F)(F)F)n3)cc2C)on1,Isolate 10,OHIO HELA-I,cytopathic effect / visual reading,2.15 µg/mL
CN(C)c1nc(C(F)(F)F)nc2c1ncn2Cc1ccc(Cl)cc1,TYPE 1B,M-HELA,plaque count,0.03 µM
CSc1nsc(-c2ccc(OCCCOc3ccccc3)cc2)c1C#N,Serotype 86 (group A),HELA-OHIO,cytopathic effect,0.6 µM
CN(C)c1ccc(Cn2cnc3c(N(C)C)nc(C(F)(F)F)nc32)cc1,Serotype 31,M-HELA,plaque count,>8 µM
CCO/N=C/c1ccc(OCCC2CCN(c3ccc(Cl)nn3)CC2)cc1,107E (ICAM-1 receptor group 73),KB,neutral red,0.003 µM
CSc1nsc(-c2ccc(OS(=O)(=O)c3ccc(C)cc3)cc2)c1C#N,Serotype 89 (group B),HELA-OHIO,cytopathic effect,0.1 µM
CSc1nsc(-c2ccc(OCCCCOc3ccc(C#N)cc3)cc2)c1C#N,Serotype 39 (group B),HELA-OHIO,cytopathic effect,>2 µM
O=[N+]([O-])c1ccc(Cn2cnc3c(Nc4cccc(F)c4)nc(C(F)(F)F)nc32)cc1,Serotype 5,M-HELA,plaque count,>100 µM

A second listing of 3 rows from above:

compound,strain or isolate,cell line,method,result
CN(C)c1nc(C(F)(F)F)nc2c1ncn2Cc1ccccc1,Serotype 13,M-HELA,plaque count,>8 µM
CN(C)c1nc(C(F)(F)F)nc2c1ncn2Cc1cccc(F)c1,Serotype 3,M-HELA,plaque count,>8 µM
CSc1nsc(-c2ccc(OCCCOc3ccccc3)cc2)c1C#N,Serotype 86 (group A),HELA-OHIO,cytopathic effect,0.6 µM

Rows are shuffled and stem from different studies.